Test results from US20210363204A1.

Target: human Nav1.7 (human), Q15858
Assay: cell-based or functional assay

GPQCQKWMQTCDAERKCCEGFSCTLWCKKKLW (modifications not checked) [NV1G1137]
Nav1.7 IC50, FLIPR Tetra membrane depolarization: 95.7 nM
